Pooled drug test results. Numbers come from NIAID ChemDB, via PubChem.

Shared fields: growth or infection tests; organism: Mycobacterium tuberculosis

Rows are shuffled and stem from different studies. MIC bound comes from a single tested concentration. Blank or dashed fields: not listed here. MIC50, MIC90 and the like: level of inhibition, or share of isolates inhibited. Inhibition is in % at the dose shown (toxicity tests: loss of growth or viability). Two numbers with a dash give a range or band. ECn is the concentration giving n% inhibition of infection, replication or growth.

SMILES	strain or isolate	measure	changes	tested at	method	result
COc1ccc(Nc2ncnc3c(=N)n(NC(=O)c4ccncc4)cnc23)cc1	H37Rv	EC90				4.22 µg/mL
Cc1ccn2c(C(=O)NCc3ccc(N4CCC5(CC4)OCC(C)CO5)c(F)c3)c(C)nc2c1	H37Rv	MIC90			resazurin	<2 µM
c1ccc(P2(c3ccccc3)=NSN=S=N2)cc1	H37Rv	inhibition		128 µg/mL	BACTEC	100%
CCCCCCCCS(=O)(=O)CC(=O)OC	H37Rv	MIC				12.5 µg/mL
O=C(Nc1cccc(F)c1)c1cc(F)ccc1O	CNCTC MY331/88	MIC				31 µM
O=c1c(O)c(-c2ccc(O)cc2)oc2cc(O)cc(O)c12	H37Rv	MIC			BACTEC	>100 µg/mL
N#C/C(=C\c1ccc(F)cc1)n1nnc2ccccc21		inhibition		12.5 µg/mL		5%
O=c1cc(-c2ccccc2)oc2cc(O)c(O)c(O)c12	H37Rv	MIC			BACTEC	50 µg/mL
Cc1ccc(/C=N/NC(=O)Nc2ccc3c(c2)C(=O)C(=O)N3CN2CCCC2)cc1	MDR	MIC			resazurin	>50 µg/mL
N#CC1(c2nc3ccccc3o2)C(=O)C(=O)N(C2C3CC4CC(C3)CC2C4)C(=O)C1=O	H37Rv	inhibition		6.25 µg/mL	resazurin	99%
CCOC(=O)c1cc(C(=O)c2ccccc2)n2ccc(-c3ccn4c(C(=O)c5ccc(OC)cc5)cc(C(=O)OC)c4c3)cc12	H37Rv (ATCC 27294)	EC90			resazurin	>100 µg/mL
CN1CCN(CN2C(=O)C(=O)c3cc(NC(=O)N/N=C/c4ccc(Cl)cc4)ccc32)CC1	MDR	MIC			resazurin	12.5 µg/mL
CCCNc1nnc(-c2ccc(N=N/C(C(C)=O)=C(/C)O)cc2)s1	H37Rv	inhibition		6.25 µg/mL	BACTEC	36%
CC1=NN(C(=O)c2ccncc2)C(=O)C1N=Nc1ccccc1C	H37Rv	MIC bound			BACTEC	>12.8 µg/mL
CCc1nc2ccc(Cl)cn2c1C(=O)NCc1ccc(N2CCC(c3ccc(OC(F)(F)F)cc3)CC2)cc1	H37Rv	MIC50			turbidity	0.0015 µM
Cc1ccn2c(C(=O)NCc3ccc(S(F)(F)(F)(F)F)cc3)c(C)nc2c1	H37Rv	MIC90			resazurin	<2 µM
Cc1cccc(C)c1NC(=O)CCC(=O)NNc1nnc(C)n1N	H37Rv	inhibition		12.5 µg/mL	BACTEC	32%
Cc1noc(-c2nc(C)c3c(c2N)C(=O)N(Cc2cccc(OC(F)(F)F)c2)C3=O)n1	H37Rv-MA	MIC90	deltaCydKO		resazurin / visual reading	<0.019 µM
Nc1cccc(-c2csc(NC(=O)c3ccc([N+](=O)[O-])o3)n2)c1	H37Ra	inhibition		1 µM		<0%
COc1ccc2cc1Oc1cc(ccc1OC)CCC(=O)CCCC2	H37Rv	MIC			broth dilution	>200 µg/mL
OC[C@@H](O)[C@@H](O)[C@H](O)C(/C=N/Nc1ccccc1)=N/Nc1ccccc1	H37Rv	inhibition		6.25 µg/mL		-1%
CCCOc1ccc(OC)c(NCc2cnc3nc(N)nc(N)c3c2C)c1	H37Ra	MIC				8 µg/mL
Cc1cn2c(C(=O)NCc3ccc(N4CCCN(c5ccc(S(F)(F)(F)(F)F)cc5)CC4)c(F)c3)c(C)nc2s1	H37Rv	MIC90			resazurin	<2 µM
O=C(Nc1cccc(F)c1)c1cc([N+](=O)[O-])ccc1O	CNCTC MY331/88	MIC				31 µM
N#C/C(=C/c1ccc(Cl)cc1)n1nc2ccccc2n1		EC50				>12.5 µg/mL
CN(C)c1ccc(NC(=O)c2cc(F)ccc2O)cc1	CNCTC MY331/88	MIC				31 µM
Nc1ccc(-c2nnc(Nc3ccc(Cl)cc3)s2)cc1	H37Rv	inhibition		6.25 µg/mL	BACTEC	16%
N=c1c2ncnc(Nc3ccc(F)cc3)c2ncn1NC(=O)c1ccncc1	H37Rv	EC90				3.58 µg/mL
NC(=O)CS(=O)(=O)CCCCCc1ccccc1	H37Rv	MIC				>25 µg/mL
COc1ccc2cc1Oc1cc(ccc1OC)CC/C(=N\OCc1ccccc1)CCCC2	H37Rv	MIC			broth dilution	>200 µg/mL
CC[C@@H](CO)NCCN[C@@H](CC)CO	WC 64/02	MIC				1.25 µg/mL
CCCCCCOc1ccc2cc1Oc1cc(ccc1OC)CCCCC(=O)CC2	H37Rv	MIC			broth dilution	>200 µg/mL
Cc1ccc(/C=N/NC(=O)Nc2ccc3c(c2)C(=O)C(=O)N3CN2CCN(c3ccccc3)CC2)cc1	MDR	MIC			resazurin	12.5 µg/mL
COc1ccc(Cc2cc(N=O)c(C)cc2O)cc1	H37Rv	MIC bound			BACTEC	>12.5 µg/mL
CCCNc1nnc(-c2ccc(N)cc2)s1	H37Rv	inhibition		6.25 µg/mL	BACTEC	0%
CN1CCSC1=[Se]	B814	MIC				100 µg/mL
O=C(NCCCCCCNC(=O)n1cc(F)c(=O)[nH]c1=O)NC1C(O)OC(CO)C(O)C1O	H37Rv	inhibition		12.5 µg/mL	BACTEC	88%
COCOc1ccc(OCOC)c(NCc2cnc3nc(N)nc(N)c3c2C)c1	H37Ra	MIC				8 µg/mL
Cc1ccc(/C=N/NC(=O)Nc2ccc3c(c2)C(=O)C(=O)N3CN2CCN(c3ccc(C)cc3)CC2)cc1	MDR	MIC			resazurin	25 µg/mL
N#C/C(=C\c1ccc(C(F)(F)F)cc1)n1nnc2ccccc21		EC50				<12.5 µg/mL
CN(C)[C@@H]1C(=O)C(C(=O)NCN[C@@H](Cc2ccc(N(CCCl)CCCl)cc2)C(=O)O)=C(O)[C@@]2(O)C(=O)C3=C(O)c4c(O)cccc4[C@@](C)(O)[C@H]3C[C@@H]12	H37Rv	MIC bound			BACTEC	>12.5 µg/mL
Cc1cc(O)c2c(c1)C(=O)C=CC2=O	WH 51/02	MIC				0.5 µg/mL
C=C1C(=O)O[C@@H]2[C@@H]1[C@@H](OC(=O)/C(C)=C/COC(C)=O)C[C@@]1(CO1)[C@@H]1[C@H]2C(C)=C[C@@H]1O	H37Rv	MIC bound			BACTEC	>12.5 µg/mL
COc1cccc(-c2csc(NC(=O)c3ccc([N+](=O)[O-])cc3)n2)c1	H37Ra	inhibition		1 µM		<0%
Oc1ccc(C2=CC(O)c3c(O)cc(O)cc3O2)cc1	H37Rv	MIC			BACTEC	>100 µg/mL
COc1ccc2cc1Oc1cc(ccc1OC)CCC(NCCc1ccccc1)CCCC2	H37Rv	MIC			broth dilution	25 µg/mL
O=C1c2ccccc2C(=O)c2c1oc1ccc3ccccc3c21	H37Rv	MIC bound			resazurin	>6.25 µg/mL
O=c1cc(-c2ccc(O)c(O)c2)oc2cc(O)cc(O)c12	H37Rv	MIC			BACTEC	25 µg/mL
CC(C)c1ccccc(=O)c1O	H37Rv	MIC			BACTEC	32 µg/mL
NC(=O)c1ncc(C(N)=S)nc1Nc1cccc(O)c1	H37Rv	MIC				25 µg/mL
O=C(Nc1nc(-c2c(F)cc(F)cc2F)cs1)c1ccc([N+](=O)[O-])o1	H37Ra	inhibition		10 µM		<0%
CCCOc1ccc(OCC)cc1NCc1cnc2nc(N)nc(N)c2c1C	H37Ra	MIC				64 µg/mL
Nc1ccc2ccc(N)nc2c1	H37Rv	MIC bound			BACTEC	>12.5 µg/mL
COc1cc(-c2oc3cc(OC)c(OC)c(O)c3c(=O)c2OC)ccc1O	H37Rv	MIC			BACTEC	>100 µg/mL
CCCCCCCCCS(=O)CC(=O)OC	H37Rv	MIC				25 µg/mL
CC1(C)NC(=S)NC1=O	B814	MIC				>100 µg/mL
N#C/C(=C/c1ccc(C(=O)O)cc1)n1nc2ccccc2n1		EC50				>12.5 µg/mL
Cc1nc(C(=O)OC2CC2)c(N)c2c1C(=O)N(Cc1ccccc1)C2=O	H37Rv-MA	MIC90	Ala317Thr		resazurin / visual reading	>10 µM
CCCOc1ccc(OC)cc1NCc1cnc2nc(N)nc(N)c2c1C	H37Ra	MIC				16 µg/mL
Cc1ccc(C(=O)Nc2cccc([N+](=O)[O-])c2)c(O)c1	CNCTC MY331/88	MIC				8 µM
O=C(c1ccncc1)c1cccc(Cl)c1	H37Rv	inhibition		6.25 µg/mL	resazurin	6%
CN1C(=O)C(=O)N(C)C1=[Se]	B814	MIC				10 µg/mL
CC(=O)OC1C2CC(C)(C)CC2=C(C=O)C2(C=O)CC12C	H37Rv	MIC bound			BACTEC	>12.5 µg/mL
COc1ccc(OC)c(NCc2cnc3nc(N)nc(N)c3c2C)c1	H37Ra	MIC				16 µg/mL
CO[C@H]1O[C@@H](Oc2cc(O)c3c(=O)cc(-c4ccc(O)cc4)oc3c2)[C@H](O)[C@@H](O)[C@@H]1O	H37Rv	MIC			BACTEC	>100 µM
CC(C)CNc1nc(C(N)=S)cnc1C(N)=O	H37Rv	MIC				50 µg/mL
CO[C@H]1/C=C/O[C@@]2(C)Oc3c(C)c(O)c4c(O)c(c(/C=N/N5CCN(C)CC5)c(O)c4c3C2=O)NC(=O)/C(C)=C\C=C\[C@H](C)[C@H](O)[C@@H](C)[C@@H](O)[C@@H](C)[C@H](OC(C)=O)[C@@H]1C	H37Rv	MIC90			resazurin / absorbance	0.02 µg/mL
NC(=O)c1cnccn1	21 strains (PZA-susceptible)	MIC				25–400 µg/mL
N#Cc1ccc(Nc2ncnc3c(=N)n(NC(=O)c4ccncc4)cnc23)cc1	H37Rv	EC90				>100 µg/mL
N#C/C(=C\c1ccc(C(=O)O)cc1)n1nnc2ccccc21		inhibition		12.5 µg/mL		0%
O=c1cc(-c2ccccc2)oc2cc(O)cc(O)c12	H37Rv	MIC			BACTEC	>100 µg/mL
Cc1ccn2c(C(=O)NCc3ccc(N4CCC(c5ccc(C(F)(F)F)cc5)CC4)nc3)c(C)nc2c1	H37Rv	MIC90			resazurin	<2 µM
COc1ccc(CCCCC(=O)/C=C/c2ccc(Br)c(OC)c2)cc1O	H37Rv	MIC			broth dilution	>200 µg/mL
O=C(Nc1cccc(F)c1)c1cc(Cl)ccc1O	CNCTC MY331/88	MIC				8 µM
CCCCCCC(O)CC[C@H]1CCC[C@@H](C)N1	H37Rv	MIC			BACTEC	≥12.5 µg/mL
Cc1cccc(Nc2nc(C(N)=S)cnc2C(N)=O)c1	H37Rv	MIC				>100 µg/mL
CCCCOc1ccc(OC)c(NCc2cnc3nc(N)nc(N)c3c2C)c1	H37Ra	MIC				32 µg/mL
O=c1cncc[nH]1	H37Rv	MIC bound			BACTEC	>12.5 µg/mL
NC(=O)c1ncc(C(N)=S)nc1Nc1ccc(O)cc1	H37Rv	MIC				25 µg/mL
O=C(O)C1C(c2c3ccc(=O)c(O)c-3oc3c(O)c(O)ccc23)C2(Cl)C(Cl)=C(Cl)C1(Cl)C2(Cl)Cl	H37Rv	MIC bound			BACTEC	>12.5 µg/mL
O=C1C(=O)N(c2ccccc2)C(=S)N1c1ccccc1	B814	MIC				100 µg/mL
Cc1ccn2c(C(=O)NCc3ccc(N4CCC(NCC5CC5)CC4)c(F)c3)c(C)nc2c1	H37Rv	MIC90			resazurin	<2 µM
CO[C@H]1/C=C/O[C@@]2(C)Oc3c(C)c(O)c4c(O)c(c5c(c4c3C2=O)NC2(CCN(CC(C)C)CC2)N=5)=NC(=O)/C(C)=C\C=C\[C@H](C)[C@H](O)[C@@H](C)[C@@H](O)[C@@H](C)[C@H](OC(C)=O)[C@@H]1C		MIC90				0.022 µg/mL
Clc1ccc(-c2nc(-c3cc4cc(Cl)ccc4o3)cs2)cc1	H37Rv	inhibition		12.5 µg/mL	BACTEC	-49%
CCc1nc2ccc(Cl)cn2c1C(=O)NCc1ccc(N2CCS(=O)CC2)cc1	H37Rv	MIC90			resazurin	<2 µM
Cc1ccc(NC(=O)C(Br)C(Br)c2ccccc2)cc1Cl	H37Rv	MIC bound			BACTEC	>12.5 µg/mL
Cc1cccc(N2CCN(CN3C(=O)C(=O)c4cc(NC(=O)N/N=C/c5ccc([N+](=O)[O-])cc5)ccc43)CC2)c1	MDR	MIC			resazurin	6.25 µg/mL
COC1=C(C(C)C)C(=O)C2=C(C1=O)C1(C)CCCC(C)(C)C1=CC2OC(C)=O		MIC				0.38 µg/mL
OC1CC2c3ccccc3C1c1cccc[n+]12	H37Rv	MIC bound			BACTEC	>12.5 µg/mL
COc1ccccc1-c1csc(NC(=O)c2ccc([N+](=O)[O-])o2)n1	H37Ra	inhibition		1 µM		<0%

Repeating the first 5 entries:

SMILES | strain or isolate | measure | changes | tested at | method | result
COc1ccc(Nc2ncnc3c(=N)n(NC(=O)c4ccncc4)cnc23)cc1 | H37Rv | EC90 |  |  |  | 4.22 µg/mL
Cc1ccn2c(C(=O)NCc3ccc(N4CCC5(CC4)OCC(C)CO5)c(F)c3)c(C)nc2c1 | H37Rv | MIC90 |  |  | resazurin | <2 µM
c1ccc(P2(c3ccccc3)=NSN=S=N2)cc1 | H37Rv | inhibition |  | 128 µg/mL | BACTEC | 100%
CCCCCCCCS(=O)(=O)CC(=O)OC | H37Rv | MIC |  |  |  | 12.5 µg/mL
O=C(Nc1cccc(F)c1)c1cc(F)ccc1O | CNCTC MY331/88 | MIC |  |  |  | 31 µM